Results of unrelated studies side by side (data: NIAID ChemDB).

Common to all: tests in culture; organism: Hepatitis C virus

ECn is the concentration giving n% inhibition of infection, replication or growth. Percent inhibition refers to the dose given; in toxicity tests it is the harm to the cells. Lines come from different laboratories, so protocols vary. An empty or dashed field is not shown. Fold resistance: result on the changed form divided by that on wild type.

| smiles | strain or isolate | mutations | cell line | read by | endpoint | dose | result |
|---|---|---|---|---|---|---|---|
| CC(C)OC(=O)[C@H](C)N[P@](=O)(OC[C@H]1O[C@@H](n2ccc(=O)[nH]c2=O)[C@](C)(F)[C@@H]1O)Oc1ccccc1 | 1b Con1 |  | Huh7 | luciferase / replicon | inhibition | 0.06 µM | 38.71% |
| O=c1c(O)c(-c2ccc(O)cc2)oc2cc(O)cc(O)c12 | G1 |  | Huh7 | PCR | inhibition | 1 µM | 43% |
| C[C@@]1(O)[C@H](O)[C@@H](CO)O[C@H]1c1coc2c(N)ncnc12 |  |  | HeLa-5B | MTT | inhibition | 50 µg/mL | 1.07% |
| CC(C)OC(=O)[C@H](C)N[P@](=O)(OC[C@H]1O[C@@](C#N)(c2ccc3c(N)ncnn23)[C@](C)(O)[C@@H]1OC(=O)C(C)C)Oc1ccccc1 | 1b Con1 | S282T | 1C | luciferase | fold resistance |  | 39 |
| C=C[C@@H]1C[C@]1(NC(=O)[C@@H]1C[C@@H](Oc2nccc3ccc(Br)cc23)CN1C(C)=O)C(=O)NS(=O)(=O)C1CC1 | 1b A156S |  |  | luciferase | EC50 |  | >3 µM |
| CC[C@H](C)C(=O)O[C@H]1CC=CC2C=C[C@H](C)[C@H](CC[C@@H]3C[C@@H](O)CC(=O)O3)[C@H]21 |  |  | Huh 9-13 | luciferase / replicon | EC90 |  | 5.8 µM |
| C[C@@]1(O)[C@H](O)[C@@H](CO)O[C@H]1c1c[nH]c2c(N)ncnc12 |  |  | Hep3B-T5B | MTT | inhibition | 10 µg/mL | 1.01% |
| CC1=CC[C@H](C(=O)N(c2cc(C#CC(C)(C)C)sc2C(=O)O)C2CCC(O)(CO[C@H]3CCOC3)CC2)CC1 | GT 1a-H77 |  | Huh7-Lunet | luciferase | EC50 |  | 0.011 µM |
| CCC[C@H](NC(=O)[C@@H]1[C@H]2CCC[C@H]2CN1C(=O)[C@@H](NC(=O)[C@@H](NC(=O)c1cnccn1)C1CCCCC1)C(C)(C)C)C(=O)C(=O)NC1CC1 | genotype 1b |  | Huh7.5 | luciferase / reporter gene | EC50 |  | 0.3016 µM |
| COC(=O)N[C@H](C(=O)N1CCC[C@H]1c1ncc(-c2ccc(-c3ccc(-c4cnc([C@@H]5CCCN5C(=O)[C@@H](NC(=O)OC)C(C)C)[nH]4)cc3)cc2)[nH]1)C(C)C | J6 |  | Huh7.5 | antigen | EC50 |  | 0.00008 µM |
| O=C1c2c(O)cc(O)cc2O[C@H](c2ccc(O)c(O)c2)[C@H]1O | G1 |  | Huh7 | PCR | inhibition | 1 µM | 39% |
| COc1ccc2c(O[C@@H]3C[C@H]4C(=O)N[C@]5(C(=O)O)C[C@H]5/C=C\CCCCC[C@H](NC(=O)OC5CCCC5)C(=O)N4C3)cc(-c3csc(NC(C)C)n3)nc2c1 | Con1 | D168V | 1C | luciferase | fold resistance |  | >410 |
| COc1ccc2c(O[C@@H]3C[C@H]4C(=O)N[C@]5(C(=O)NS(=O)(=O)C6CC6)C[C@H]5/C=C\CCCCN(C)C(=O)[C@@H]4C3)cc(-c3nc(C(C)C)cs3)nc2c1C | NZL1 |  | Huh7.5 | antigen | EC50 |  | 2.061 µM |
| CC(C)(CO)C(=O)SCCOP(=O)(NCc1ccccc1)OC[C@H]1O[C@@H](n2cnc3c(=O)[nH]c(N)nc32)[C@](C)(O)[C@@H]1O | GT1a | E15G | Replicon cells | replicon | fold resistance |  | 1.6 |
| Clc1ccc(Cn2c(CN3CCCC3)nc3ccccc32)cc1 | 1b Con1 |  | Huh7 | luciferase / replicon | inhibition | 17.5 µM | 73.58% |
| CC1CCC(C(=O)N(c2cc(C#CC(C)(C)C)sc2C(=O)O)C2CCC(O)CC2)CC1 | GT 1a-H77 |  | Huh7-Lunet | luciferase | EC50 |  | 0.013 µM |

Repeating the final 2 entries:

smiles,strain or isolate,mutations,cell line,read by,endpoint,dose,result
Clc1ccc(Cn2c(CN3CCCC3)nc3ccccc32)cc1,1b Con1,,Huh7,luciferase / replicon,inhibition,17.5 µM,73.58%
CC1CCC(C(=O)N(c2cc(C#CC(C)(C)C)sc2C(=O)O)C2CCC(O)CC2)CC1,GT 1a-H77,,Huh7-Lunet,luciferase,EC50,,0.013 µM